Pooled drug test results. Numbers come from NIAID ChemDB, via PubChem.

Shared fields: growth or infection tests

ECn is the concentration giving n% inhibition of infection, replication or growth.

CC(=O)ONc1ccc(S(=O)(=O)N(CC(C)C)C[C@@H](O)[C@H](Cc2ccccc2)NC(=O)CCCN2C(=O)c3ccccc3C2=O)cc1 ; endpoint: EC50 ; read by: MTT ; cells: CEM ; agent: SIV ; result: 5.6 µM
CC(C)(O)c1cn(-c2ccc([N+](=O)[O-])cc2)nn1 ; endpoint: inhibition ; read by: broth dilution ; tested at: 2048 µg/mL ; agent: Candida albicans ; strain: URM 4386 ; result: 0%
Nc1ncnc2c1ncn2[C@@H]1CC[C@@H](O)[C@H]1O ; endpoint: EC50 ; read by: neutral red ; cells: CV-1 ; agent: Measles virus ; strain: Chicago ; result: <0.1 µg/mL
O=C(NNC(=O)c1ccccc1O)c1ccc(OC(F)(F)F)cc1 ; endpoint: MIC50 ; cells: Human foreskin fibroblasts ; agent: Toxoplasma gondii ; result: >0.25 µM
CC1CCC(C(=O)N(c2cc(C#CC(C)(C)C)sc2C(=O)O)C2CCC(O)CC2)CC1 ; endpoint: fold resistance ; read by: luciferase ; cells: Huh7 ; agent: Hepatitis C virus ; strain: Con1 (gt 1b) ; changes: A486I ; result: 102.1
CC(=O)ONc1ccc(S(=O)(=O)N(CC(C)C)C[C@@H](O)[C@H](Cc2ccccc2)NC(=O)COc2ccc3ccccc3c2)cc1 ; endpoint: EC50 ; read by: MTT ; cells: CEM ; agent: SIV ; result: 7.3 µM
N#Cc1csc(NC(=O)NCCc2ccccc2)n1 ; endpoint: inhibition ; read by: cytopathic effect / XTT ; cells: MT-4 ; tested at: 10 µg/mL ; agent: HIV-2 ; result: 0%
Cc1cc(C)cc(C(=O)c2cc(Cl)ccc2OCC(=O)Nc2ccc(S(N)(=O)=O)cc2C)c1 ; endpoint: fold resistance ; read by: β-galactosidase ; cells: HeLa + HELA CD4+ ; agent: HIV-1 ; strain: HXB2 ; changes: RT-K103N ; result: ~1
CC(C)Oc1ccc2cc(C(=O)NC(=O)c3ccccc3O)ccc2c1 ; endpoint: MIC50 ; cells: Human foreskin fibroblasts ; agent: Toxoplasma gondii ; result: 0.062–0.125 µM
O=C(NCCc1ccccc1)Nc1nc(C(F)(F)F)cs1 ; endpoint: inhibition ; read by: cytopathic effect / XTT ; cells: MT-4 ; tested at: 10 µg/mL ; agent: HIV-2 ; result: 38%
CC(C)(O)c1cn(-c2ccccc2)nn1 ; endpoint: inhibition ; read by: broth dilution ; tested at: 2048 µg/mL ; agent: Candida parapsilosis ; strain: URM 4889 ; result: 0%
Nc1ncnc2c1ncn2[C@H]1CC[C@H](O)[C@@H]1O ; endpoint: EC50 ; read by: virus yield ; cells: CV-1 ; agent: Measles virus ; result: 3 µg/mL
Cc1nc(NC(=O)NCCc2ccccc2)sc1C ; endpoint: inhibition ; read by: RT activity ; cells: MT-4 ; tested at: 1 µg/mL ; agent: HIV-2 ; result: 92%
O=C(CC(=O)Nc1cccc(C(F)(F)F)c1)Nc1cccc(C(F)(F)F)c1 ; endpoint: MIC ; agent: Escherichia coli ; strain: ES142 ; result: >300 µM
CCc1cc(C#N)cc(C(=O)c2cc(Cl)ccc2OCC(=O)Nc2ccc(S(N)(=O)=O)cc2C)c1 ; endpoint: fold resistance ; read by: β-galactosidase ; cells: HeLa + HELA CD4+ ; agent: HIV-1 ; strain: HXB2 ; changes: RT-Y181C ; result: ~1
Nc1nc2c(ncn2COC(CO)CO)c(=O)[nH]1 ; endpoint: EC50 ; read by: hybridisation ; cells: MRC-5 ; agent: Human cytomegalovirus ; strain: C8501 ; result: 1 µM
Nc1ncnc2c1ncn2[C@@H]1C=C[C@@H](O)[C@H]1O ; endpoint: EC50 ; read by: cytopathic effect ; cells: CV-1 ; agent: Measles virus ; strain: Halonen ; result: <0.1 µg/mL
O=C(NNC(=O)Nc1ccccc1C(F)(F)F)Nc1cc(C(F)(F)F)cc(C(F)(F)F)c1 ; endpoint: MIC ; agent: Klebsiella pneumoniae ; strain: KL21 ; result: >300 µM
O=C1[C@@H](Cc2ccccc2)NC(=S)N1Cc1ccccc1 ; endpoint: inhibition ; read by: RT activity ; cells: MT-4 ; tested at: 1 µg/mL ; agent: HIV-2 ; result: 1%
O=C(NNC(=O)Nc1ccc(Cl)c(Cl)c1)Nc1ccc(Cl)c(Cl)c1 ; endpoint: MIC ; agent: Escherichia coli ; strain: ES142 ; result: >314 µM
CC(=O)ONc1ccc(S(=O)(=O)N(CC(C)C)C[C@@H](O)[C@H](Cc2ccccc2)NC(=O)[C@H](C)N2C(=O)c3ccccc3C2=O)cc1 ; endpoint: EC50 ; read by: MTT ; cells: CEM ; agent: SIV ; result: 2 µM
NCCCC[C@H](NC(=O)[C@H](Cc1c[nH]c2ccccc12)NC(=O)[C@H](CCCCN)NC(=O)[C@@H](N)CCCCN)C(=O)O ; endpoint: inhibition ; tested at: 25 µM ; agent: Cryptococcus neoformans ; strain: ATCC 32264 ; result: 0%
CCN=C1NC2C(OC(CO)C(O)C2O)S1 ; endpoint: inhibition ; read by: flow cytometry ; cells: HEK 293 ; tested at: 1 µM ; agent: Kaposi sarcoma virus ; result: 30%
C=CCc1ccc(OC)c(OC)c1 ; endpoint: MIC90 ; read by: turbidity ; agent: Candida tropicalis ; strain: 2804 ; result: 345 µg/mL
CCc1ccc(NC(=O)NC(=O)c2ccccc2O)cc1 ; endpoint: MIC50 ; cells: Human foreskin fibroblasts ; agent: Toxoplasma gondii ; result: >0.25 µM
CCC(CC)[C@H](NC(C)=O)[C@@H]1[C@H](O)[C@@H](C(=O)O)C[C@H]1N=C(N)N ; endpoint: EC50 ; cells: MDCK ; agent: Influenza A virus ; strain: Influenza A/Washington/05/96 (H3N2) ; result: 0.02 µM
CN1C(=O)[C@@H](Cc2ccccc2)NC1=S ; endpoint: inhibition ; read by: RT activity ; cells: MT-4 ; tested at: 100 µg/mL ; agent: HIV-2 ; result: 98%
CC(C)(O)c1cn(-c2ccc3ccccc3c2)nn1 ; endpoint: inhibition ; read by: broth dilution ; tested at: 2048 µg/mL ; agent: Candida parapsilosis ; strain: URM 4261 ; result: 0%
Nc1ncnc2c1ncn2[C@H]1C[C@H](O)[C@H](O)[C@@H]1O ; endpoint: EC50 ; read by: virus yield ; cells: CV-1 ; agent: Measles virus ; result: 0.2 µg/mL
O=C1[C@@H](Cc2ccccc2)NC(=S)N1c1ccccc1 ; endpoint: inhibition ; read by: RT activity ; cells: MT-4 ; tested at: 100 µg/mL ; agent: HIV-2 ; result: 95%
CCC(C)n1ncn(-c2ccc(N3CCN(c4ccc(OC[C@H]5CO[C@](Cn6cncn6)(c6ccc(Cl)cc6Cl)O5)cc4)CC3)cc2)c1=O ; endpoint: inhibition ; read by: broth dilution ; tested at: 4 µg/mL ; agent: Aspergillus fumigatus ; strain: AF293 ; changes: sakA ; result: 99.89%
O=C(NCCc1ccccc1)Nc1nc2ccc(F)cc2s1 ; endpoint: inhibition ; read by: cytopathic effect / XTT ; cells: MT-4 ; tested at: 100 µg/mL ; agent: HIV-2 ; result: 93%
Cc1cc(S(N)(=O)=O)ccc1NC(=O)COc1ccc(Cl)cc1C(=O)c1cc(F)cc(F)c1 ; endpoint: fold resistance ; read by: β-galactosidase ; cells: HeLa + HELA CD4+ ; agent: HIV-1 ; strain: HXB2 ; changes: RT-L100I ; result: ~1
CC(=O)ONc1ccc(S(=O)(=O)N(Cc2ccccc2)C[C@@H](O)[C@H](Cc2ccccc2)NC(=O)CN2C(=O)c3ccccc3C2=O)cc1 ; endpoint: EC50 ; read by: MTT ; cells: CEM ; agent: SIV ; result: 4.6 µM
Nc1nc2c(ncn2COC(CO)CO)c(=O)[nH]1 ; endpoint: EC50 ; read by: plaque count ; cells: SML ; agent: Squirrel monkey cytomegalovirus ; result: 1.3 µM
Cc1cc2cn[nH]c2cc1NC(=O)COc1ccc(Cl)cc1C(=O)c1cccc(C#N)c1 ; endpoint: fold resistance ; read by: β-galactosidase ; cells: HeLa + HELA CD4+ ; agent: HIV-1 ; strain: HXB2 ; changes: RT-Y181C ; result: ~1
CCOC(=O)c1ccc(OCCC2CCN(c3ccc(C)nn3)CC2)cc1 ; endpoint: EC50 ; read by: neutral red ; cells: KB ; agent: Rhinovirus ; strain: 5146 (ICAM-1 receptor group 24) ; result: 0.006 µM
CO[C@H]1/C=C/O[C@@]2(C)Oc3c(C)c(O)c4c(O)c(c5c(c4c3C2=O)NC2(CCN(CC(C)C)CC2)N=5)=NC(=O)/C(C)=C\C=C\[C@H](C)[C@H](O)[C@@H](C)[C@@H](O)[C@@H](C)[C@H](OC(C)=O)[C@@H]1C ; endpoint: MIC ; agent: Mycobacterium avium intracellulare ; strain: SKV ; result: 0.125 µg/mL
Nc1ncnc2c1ncn2[C@@H]1C[C@H](N)[C@@H](O)[C@H]1O ; endpoint: EC50 ; read by: neutral red ; cells: CV-1 ; agent: Measles virus ; strain: TN1994 ; result: 0.6 µg/mL
Cc1cc(C#N)cc(C(=O)c2cc(Cl)ccc2OCC(=O)Nc2ccc(OCCCN3CC=CC3)cc2C)c1 ; endpoint: fold resistance ; read by: β-galactosidase ; cells: HeLa + HELA CD4+ ; agent: HIV-1 ; strain: HXB2 ; changes: RT-P236L ; result: ~1
CCOC(=O)/C=C/[C@H](C[C@@H]1CCNC1=O)NC(=O)[C@@H](CC(=O)[C@@H](NC(=O)c1cc(C)on1)C(C)C)Cc1ccc(F)cc1 ; endpoint: EC50 ; read by: cytopathic effect / visual reading ; cells: OHIO HELA-I ; agent: Rhinovirus ; strain: Isolate 13 ; result: 0.01 µg/mL
Cc1ccc(-n2cc(C(C)(C)O)nn2)cc1C ; endpoint: inhibition ; read by: broth dilution ; tested at: 2048 µg/mL ; agent: Candida parapsilosis ; strain: URM 4608 ; result: 0%
CCCCCCCCCCCCCCCCCCCCCCOCC(C)(COCCCCCCCCCCCCCCCCCCCCCC)CO[C@]1(C(=O)O)C[C@H](OS(=O)(=O)O)[C@@H](NC(C)=O)[C@H]([C@H](OS(=O)(=O)O)[C@@H](COS(=O)(=O)O)OS(=O)(=O)O)O1 ; endpoint: EC50 ; read by: plaque count ; cells: MA-104 ; agent: Rotavirus ; strain: DS-1 (serotype 2) ; result: 4.7 µg/mL
CC(=O)ONc1ccc(S(=O)(=O)N(Cc2ccccc2)C[C@@H](O)[C@H](Cc2ccccc2)NC(=O)[C@H](C(C)C)N2C(=O)c3ccccc3C2=O)cc1 ; endpoint: EC50 ; read by: MTT ; cells: CEM ; agent: SIV ; result: 8 µM
Cc1ccnc(NC(=O)NCCc2ccccc2)n1 ; endpoint: inhibition ; read by: RT activity ; cells: MT-4 ; tested at: 1 µg/mL ; agent: HIV-2 ; result: 0%
Cc1cc(S(N)(=O)=O)ccc1NC(=O)COc1ccc(Cl)cc1C(=O)c1cccc(C#N)c1 ; endpoint: fold resistance ; read by: β-galactosidase ; cells: HeLa + HELA CD4+ ; agent: HIV-1 ; strain: HXB2 ; changes: RT-K103N P225H ; result: ~1
CC(C)CN(C[C@@H](O)[C@H](Cc1ccccc1)NC(=O)Cc1c[nH]c2ccccc12)S(=O)(=O)c1ccc(Br)cc1 ; endpoint: EC50 ; read by: MTT ; cells: CEM ; agent: SIV ; result: 6.3 µM
CCc1ccc(C(=O)Nc2n[nH]c3ccccc23)cc1 ; endpoint: MIC50 ; cells: Human foreskin fibroblasts ; agent: Toxoplasma gondii ; result: >0.125 µM
O=C(CCC(=O)Nc1cc(C(F)(F)F)cc(C(F)(F)F)c1)Nc1cc(C(F)(F)F)cc(C(F)(F)F)c1 ; endpoint: MIC ; agent: Escherichia coli ; strain: ES142 ; result: >300 µM
CCc1ccc(C(=O)NS(=O)(=O)c2ccccc2OC)cc1 ; endpoint: MIC50 ; cells: Human foreskin fibroblasts ; agent: Toxoplasma gondii ; result: >0.25 µM
OC[C@H]1O[C@@H](n2c(Br)nc3cc(Cl)c(Cl)cc32)[C@H](O)[C@@H]1O ; endpoint: EC50 ; read by: hybridisation ; cells: MRC-5 ; agent: Human cytomegalovirus ; strain: 9219REC7 (LEU595DEL) ; result: 1 µM

5 of the rows above, restated:

{"SMILES": "CC(=O)ONc1ccc(S(=O)(=O)N(CC(C)C)C[C@@H](O)[C@H](Cc2ccccc2)NC(=O)[C@H](C)N2C(=O)c3ccccc3C2=O)cc1", "endpoint": "EC50", "read by": "MTT", "cells": "CEM", "agent": "SIV", "result": "2 µM"}
{"SMILES": "Cc1nc(NC(=O)NCCc2ccccc2)sc1C", "endpoint": "inhibition", "read by": "RT activity", "cells": "MT-4", "tested at": "1 µg/mL", "agent": "HIV-2", "result": "92%"}
{"SMILES": "O=C1[C@@H](Cc2ccccc2)NC(=S)N1Cc1ccccc1", "endpoint": "inhibition", "read by": "RT activity", "cells": "MT-4", "tested at": "1 µg/mL", "agent": "HIV-2", "result": "1%"}
{"SMILES": "CCCCCCCCCCCCCCCCCCCCCCOCC(C)(COCCCCCCCCCCCCCCCCCCCCCC)CO[C@]1(C(=O)O)C[C@H](OS(=O)(=O)O)[C@@H](NC(C)=O)[C@H]([C@H](OS(=O)(=O)O)[C@@H](COS(=O)(=O)O)OS(=O)(=O)O)O1", "endpoint": "EC50", "read by": "plaque count", "cells": "MA-104", "agent": "Rotavirus", "strain": "DS-1 (serotype 2)", "result": "4.7 µg/mL"}
{"SMILES": "N#Cc1csc(NC(=O)NCCc2ccccc2)n1", "endpoint": "inhibition", "read by": "cytopathic effect / XTT", "cells": "MT-4", "tested at": "10 µg/mL", "agent": "HIV-2", "result": "0%"}

Inhibition is in % at the dose shown (toxicity tests: loss of growth or viability). Two numbers with a dash give a range or band. A number after MIC or MFC names an inhibition level or a share of isolates. Fold resistance: result on the changed form divided by that on wild type. Lines come from different laboratories, so protocols vary.